Assay: Conversion of tyrosine to pHCA in 3 L Applikon BioReactors
Type: cell-based, E. coli
Details: pH 9.9
Description: The following experiment was performed in an Applikon BioReactor (9.0 liter working volume) where pH and temperature of the reaction were controlled. Both strains DPD5154 and DPD5124 were tested. The E. coli DPD5154 (PcTAL) cells were produced by the protocol described in Example 6, with a final cell density of […]. In the case of E. coli DPD5124 (RgTAL) the inoculum was grown in a 2.0 L shake flask containing 500 ml of the following medium (in grams per liter) KH2PO4 (2.0 g/L), K2HPO4 (13.0 g/L), (NH4)2HPO4 […]), MgSO4.7H2O (1.0 g/L), yeast extract (2.0 g/L), Ferric Ammonium Citrate (0.1 g/L). The pH was adjusted to 7.0 and the medium steam sterilized. Glucose (30.0 g/L) and ampicillin (50 mg/L) were added post-sterilization. The culture was grown in 2 L flasks with 500 mL medium, at 35° C. to about OD550 of 2.0 and then the entire contents was used to inoculate the fermentor. The fermentor was controlled at 36° C., pH 6.8, with the dissolved oxygen (DO) tension of 25% controlled with cascade of agitation and air flow with agitation from 400 to 1000 rpm and airflow from 2 to 16 SLPM. The overhead pressure was 0.5. When the glucose level reached below 4.0 g/L a glucose feed program with 60% glucose (w/w) was initiated, consisting of: first 4 h at 0.36 g/min, next 12 h at 0.73 g/min and to the end of run at 0.56 g/min. When the culture reached an OD550 of 35, arabinose was added to final concentration of 0.5 g/L The fermentation was terminated 20 h after arabinose addition. The final cell density in the fermentation broth was an OD550 of 90 and the final volume was about 9 liter. The g dcw/L was determined assuming that 1.0 OD550 contained 0.33 g dcw/L:=30 g dcw/L.
The cells were harvested by centrifugation and stored as a frozen paste at −80° C. until use. Before use, the cell paste was thawed and suspended in the saline solution to about 10% w/v. The cell dry weight concentration was calculated from [cells wet weight]×[% solids] where [% solids] was determined after drying the cells in a vacuum oven, at 90° C. for >16 h.
The tyrosine used was AR grade (J. T. Baker). It was suspended in distilled, deionized water at 33% w/w concentration, homogenized in a blender and added to about 50 g/L final concentration. Reactions were conducted in 3 L Applikon BioReactors (Applikon, De Brauwweg 13, The Netherlands), with a 1-2 L working volume. The set points for the control systems were pH 9.9 with automatic addition of NaOH 25% w/v with agitation at 400 rpm. The bioconversion was typically done by adding the tyrosine suspension to the appropriate concentration, adjusting the pH and temperature to the determined set point, adding the cell suspension to the appropriate concentration, and DI water to the final volume.

B1: PcTAL: thermostable tyrosine ammonia lyase (PAL/TAL) enzyme from Phanerochaete chrysosporium, SEQ ID NO:1 (protein, listed as Phanerochaete chrysosporium)
chain: MPSRIDYYTSSGNGYAQSRKSSAIYPASASTGHAAPSTERKPELLDKFVEAYDELQSYREGKPVIVDGHNLSIPAVAATARFGAAVVLDENPETHERVLQSRRVIVDKVSTQRSVYGVSTGFGGSADTRTSDPLQLGHALLQHQHVGVLPTQTESPLPALPLGDPLATTSMPEAWVRGAILIRMNSLIRGHSGVRWELIEKMGELLRENITPLVPLRGSISASGDLSPLSYIAGTLIGSPAIRVFDGPASYGARRILPSNIALANHGVAPIPLSSKEHLGILNGTAFSASVGALALNEAVHLSLLAQVCTAMGTEAMIGAVGSFDAFIHDTARPHPGQVEVARNVRTLLEDSQMAVKAEDEVHIAEDEGELRQDRYPLRTAAQFLGPQIEDILSAHETVTLECNSTTDNPLIDGETGTVHHGGNFQAMAVTNAMEKTRLAIHHIGKLLFAQATELINPMMNRGLPPNLAATDPSHNYFAKGVDIHLAAYVGELGFLASPVSSHIQSAEMHNQAVNSLALVSARYTISALDVLSLLTAAYLYVLCQALDLRAMHNDLQSSLSAIVRELLPKHFPSAAKRADALLPILERTIFRALNSSSSADCKARMVSVAASTTTPLVDFLSADAALASELANITAFRTELATRAADALTTLRTQYLEGARGAAPASKYLGKTRPVYEFVRVTLNVPMHGRENLHNFEMGPGVEDGIIGNNISTIYEAIRDGKMQNVVMQLVKSIKA
pHCA g/L (30 C., cell conc 6 g/L, reaction time 19 h): 41.8 g/L
pHCA g/L (35 C., cell conc 6 g/L, reaction time 15 h): 41.78 g/L
pHCA g/L (40 C., cell conc 6 g/L, reaction time 7 h): 41.6 g/L
pHCA g/L (43 C., cell conc 6 g/L, reaction time 6 h): 41.4 g/L
pHCA g/L (45 C., cell conc 2 g/L, reaction time 19 h): 42.2 g/L
pHCA g/L (45 C., cell conc 4 g/L, reaction time 10 h): 41.8 g/L
pHCA g/L (45 C., cell conc 6 g/L, reaction time 6 h): 41 g/L
pHCA g/L (48 C., cell conc 6 g/L, reaction time 6 h): 42 g/L
